PubChem BioAssay AID624099 | ICCB-Longwood | 2012
This is a random part of about 21,000 deposited reagents. 497 of all reagents (2.4%) were called active. 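Higher z means weaker E2 silencing; only reporter increases were scored, and knock-downs that hurt cell survival may mask genuine repressor factors.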 Entries without a mark were called inactive. Reagent sequences are not shown.

Purpose: 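Knock-downs relieving repression by E2 of an HPV18 LCR luciferase reporter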 (primary screen)
Cells: human C33A cervical carcinoma cells (HPV-negative) stably expressing BPV1 E2 and an HPV18 LCR luciferase reporter
Reagent: siRNA pool against human genes, 40 nM
Duration: 72 h
Measurement: 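HPV18 LCR reporter light per well, converted to plate-wise z-scores that exclude control wells, and averaged over triplicate plates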
Direction: mean z-score and z-score: higher = stronger reporter signal, weaker E2 silencing
Hit rule: 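Hit if mean z-score reaches 2 and two or more of three replicate z-scores also reach 2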

target | mean z-score | z-score, replicate A | z-score, replicate B | z-score, replicate C
ZW10 (zw10 kinetochore protein) | -0.39 | -0.22 | – | -0.56
RET (ret proto-oncogene) | -0.01 | -0.01 | -0.14 | 0.12
SLC22A4 | 0.19 | 0.33 | 0.17 | 0.07
FTH1P7 (ferritin heavy chain 1 pseudogene 7) | -0.9 | -1.05 | -0.8 | -0.86
FOLR2 (folate receptor beta) | -0.8 | -0.65 | -0.88 | -0.87
TGFB3 (transforming growth factor beta 3) | -0.27 | -0.21 | -0.25 | -0.36
TBC1D31 (TBC1 domain family member 31) | 1.05 | 1.34 | 0.66 | 1.16
CTDSP2 (CTD small phosphatase 2) | -0.91 | -0.83 | -0.76 | -1.14
RGCC (regulator of cell cycle) | -0.21 | -0.09 | -0.42 | -0.11
BTF3L4 (basic transcription factor 3 like 4) | -0.59 | -0.65 | -0.63 | -0.5
FCRL3 (Fc receptor like 3) | 1.58 | 1.84 | 1.35 | 1.55
KRTAP5-2 (keratin associated protein 5-2) | -1.46 | -1.21 | -1.9 | -1.27
IYD (iodotyrosine deiodinase) | -1.8 | -2.1 | -2.01 | -1.29
NRTN (neurturin) | -0.39 | -0.38 | -0.51 | -0.29
EPHB2 (EPH receptor B2) | -0.24 | 0.12 | -0.38 | -0.48
TUBA1C (tubulin alpha 1c) | -1.93 | -1.76 | -1.98 | -2.06
SESN2 (sestrin 2) | -0.39 | -0.58 | -0.42 | -0.17
OR51B5 (olfactory receptor family 51 subfamily B member 5) | 0.97 | 0.68 | 0.81 | 1.42
TUT1 (terminal uridylyl transferase 1, U6 snRNA-specific) | 1.14 | 1.4 | 0.66 | 1.37
CDK8 (cyclin dependent kinase 8) | 0.27 | -0.05 | 0.25 | 0.6
KRTAP19-7 (keratin associated protein 19-7) | 0.1 | -0.07 | 0.21 | 0.15
RFX3 (regulatory factor X3) | -1.33 | -1.48 | -1.48 | -1.02
ASIC2 (acid sensing ion channel subunit 2) | -1.62 | -1.54 | -1.78 | -1.53
ST6GALNAC1 (ST6 N-acetylgalactosaminide alpha-2,6-sialyltransferase 1) | -0.59 | -0.55 | -0.67 | -0.56
PLEKHD1 (pleckstrin homology and coiled-coil domain containing D1) | -0.01 | 0.02 | -0.08 | 0.04
LOC388148 (retired record) | 0.84 | 1.07 | 0.74 | 0.73
ERMAP | -0.33 | 0.15 | -0.65 | -0.48
MYH10 (myosin heavy chain 10) | 0.19 | 0.22 | -0.02 | 0.38
RFPL2 (ret finger protein like 2) | -0.33 | -0.25 | -0.4 | -0.34
LINC03122 (long independently transcribed non-coding RNA 3122) | 0.39 | 0.43 | 0.25 | 0.49
OPN5 (opsin 5) | -1.63 | -1.39 | -1.81 | -1.68
RBM42 (RNA binding motif protein 42) | 0.72 | 1.06 | 0.47 | 0.64
DNAJC27-AS1 (DNAJC27 antisense RNA 1) | -1.1 | -0.9 | -1.27 | -1.13
ISM1 (isthmin 1) | -0.27 | -0.22 | -0.66 | 0.08
TMEM54 (transmembrane protein 54) | 0.99 | 1.01 | 0.84 | 1.11
PCSK2 (proprotein convertase subtilisin/kexin type 2) | 0.58 | 0.38 | 0.64 | 0.71
PRMT1 (protein arginine methyltransferase 1) | 1.87 | 1.64 | 2.31 | 1.65
ERG28 (ergosterol biosynthesis 28 homolog) | 2.79 (active) | 2.79 | 2.8 | 2.78
ANKRD29 (ankyrin repeat domain 29) | 0.15 | -0.34 | 0.21 | 0.57
CTPS1 (CTP synthase 1) | -0.54 | -0.67 | -0.61 | -0.36
CA9 (carbonic anhydrase 9) | 1 | 0.75 | 1.04 | 1.23
USH1C (USH1 protein network component harmonin) | 0.32 | -0.06 | 0.35 | 0.68
LOC400400 (retired record) | -1.1 | -0.94 | -1.4 | -0.95
CENPN (centromere protein N) | -0.19 | -0.31 | -0.13 | -0.12
RTL6 (retrotransposon Gag like 6) | 1.99 | 1.25 | 2.83 | 1.88
PREPL (prolyl endopeptidase like) | -0.19 | -0.22 | -0.24 | -0.1
SUN2 (Sad1 and UNC84 domain containing 2) | 0.52 | 0.29 | 0.78 | 0.5
PRIM1 (DNA primase subunit 1) | 0.19 | -0.32 | 0.52 | 0.36
CPXM1 (carboxypeptidase X, M14 family member 1) | -1.01 | -1.05 | -0.93 | -1.04
EPN1 (epsin 1) | -0.35 | -0.23 | -0.37 | -0.45
LDLR (low density lipoprotein receptor) | 1.12 | 1.06 | 1.08 | 1.24
KBTBD4 (kelch repeat and BTB domain containing 4) | 0.09 | -0.2 | -0.13 | 0.6
SAR1A (secretion associated Ras related GTPase 1A) | 0.42 | 0.02 | 0.71 | 0.52
HDAC7 (histone deacetylase 7) | 0.15 | 0.39 | 0.06 | 0
PCDHA12 (protocadherin alpha 12) | -0.86 | -0.92 | -0.97 | -0.68
BST2 (bone marrow stromal cell antigen 2) | 0.51 | 0.41 | 0.52 | 0.61
SPMIP2 (sperm microtubule inner protein 2) | -0.65 | -0.45 | -0.72 | -0.78

Reagents listed above with an active call (1):
target | mean z-score | z-score, replicate A | z-score, replicate B | z-score, replicate C
ERG28 (ergosterol biosynthesis 28 homolog) | 2.79 (active) | 2.79 | 2.8 | 2.78
